Anti-infective test results gathered from many reports (values: NIAID ChemDB through PubChem).

Common to all: growth or infection tests; organism: Aspergillus flavus

Blank or dashed fields: not listed here.

SMILES	read by	strain or isolate	endpoint	setting	result
O=C1CSC2(CCc3ccccc32)N1n1c(-c2ccc(Cl)cc2Cl)n[nH]c1=S			MIC100		12.5 µg/mL
O=C(O)c1ccccc1			MIC		>10 µg/mL
Cc1ccc(OCC(=O)Nc2nc(-c3cccc(Cl)c3)cs2)cc1C		NCIM 524	MIC		12.5 µg/mL
Cc1cc(C)nc(NS(=O)(=O)c2ccc(N=CNn3c(=S)[nH]nc(/C=C/c4cccs4)c3=O)cc2)n1	agar		MIC90		164 µg/mL
Cc1cc2ncn(CC(O)COc3cc(OCC(O)Cn4cnc5cc(C)c(C)cc54)c4c(C)cc(=O)oc4c3)c2cc1C			MIC		64 µg/mL
CCC1/C=C/C=C/C=C/C=C/C(OC2OC(C)C(O)C(N)C2O)CC2OC(O)(CC(O)CC(O)C(O)/C=C/C(=O)OC1C)CC(O)C2C(=O)O	broth dilution	CGMCC 3.289	MFC		12.56 µg/mL
Cc1c(N=Cc2c[nH]c3ccccc23)c(=O)n(-c2ccccc2)n1C			MIC		256 µM
CC1CC(c2ccncc2)Nc2ccc(Br)cc21		ATCC 9170	MIC100		>250 µg/mL
C[C@H]1[C@H](O)[C@@H](C)/C=C/C=C/C=C/C=C/C=C/C=C/C=C/[C@H](O[C@@H]2O[C@H](C)[C@@H](O)[C@H](N)[C@@H]2O)C[C@@H]2O[C@](O)(C[C@@H](O)C[C@@H](O)CC[C@H](O)[C@@H](O)C[C@@H](O)CC(=O)O[C@H]1C)C[C@H](O)[C@H]2C(=O)O	XTT	Clinical isolate	MFC		2–4 µg/mL
O=C1CSC2(CCc3ccccc32)N1n1c(-c2ccc([N+](=O)[O-])cc2)n[nH]c1=S			MIC100		12.5 µg/mL
COC(=O)Cc1csc(NC(=O)Cc2ccc(C)cc2)n1		NCIM 524	MIC		6.25 µg/mL
Cc1nc2c(CN)c(-c3ccc(C)o3)c(CN)c(=O)n2[nH]1			MIC		25 µg/mL
c1ccc(Cc2nc(CN3CCc4sccc4C3)n[nH]2)cc1	agar	NCIM 539	MIC		>200 µg/mL
O=C1CCC(c2ccc(Cl)cc2)=NN1Cc1n[nH]c(=S)n1-c1ccc(Cl)cc1			MIC		4 µg/mL
Clc1ccccc1-c1n[nH]c(CN2CCc3sccc3C2)n1	agar	NCIM 539	MIC		100 µg/mL
OC(Cn1cncn1)(Cn1cncn1)c1ccc(F)cc1F		KCCM 11899	MIC		0.8 µg/mL
O=C1CCC(c2ccc(Oc3ccccc3)cc2)=NN1Cc1n[nH]c(=S)n1-c1ccc(Br)cc1			MIC		16 µg/mL
CCC(C)CC(C)CCCCCCCCC(=O)N[C@H]1C[C@@H](O)[C@H](NCCN)NC(=O)[C@@H]2[C@@H](O)CCN2C(=O)[C@H]([C@H](O)CCN)NC(=O)[C@H]([C@H](O)[C@@H](O)c2ccc(O)cc2)NC(=O)[C@@H]2C[C@@H](O)CN2C(=O)[C@H]([C@@H](C)O)NC1=O	broth dilution		MEC		0.06 µg/mL
O=C1CCC(c2ccccc2)=NN1Cc1n[nH]c(=S)n1-c1ccc(Br)cc1			MIC		5 µg/mL
Cc1cc(=O)oc2cc(OCCCCCCn3cc(CN4CCCCC4)nn3)ccc12	agar diffusion	MTCC 277	MIC		12.5 µg/mL
Cc1ccc(CC(=O)Nc2nc(-c3cccc(F)c3)cs2)cc1		NCIM 524	MIC		6.25 µg/mL
CC(=O)N1CCC(n2cc(CN3CCc4sccc4C3)nn2)CC1	agar	NCIM 539	MIC		>200 µg/mL
Cc1ccc(/C=c2/sc3n(c2=O)C(N)=C(CN)C(c2ccc(C)o2)C=3CN)o1			MIC		25 µg/mL
CCC(C)n1ncn(-c2ccc(N3CCN(c4ccc(OC[C@H]5CO[C@](Cn6cncn6)(c6ccc(Cl)cc6Cl)O5)cc4)CC3)cc2)c1=O		NCIM 524	MIC		<6.25 µg/mL
C[C@H]1[C@H](O)[C@@H](C)/C=C/C=C/C=C/C=C/C=C/C=C/C=C/[C@H](O[C@@H]2O[C@H](C)[C@@H](O)[C@H](N)[C@@H]2O)C[C@@H]2O[C@](O)(C[C@@H](O)C[C@@H](O)CC[C@H](O)[C@@H](O)C[C@@H](O)CC(=O)O[C@H]1C)C[C@H](O)[C@H]2C(=O)O	broth dilution	204304	MIC		0.25 µg/mL
O=c1[nH][nH]c2c1C(c1ccc(F)cc1)CC(Cc1ccc3ccccc3c1)=C2	agar diffusion		MIC		100 µg/mL
O=C1CSC2(CCc3ccccc32)N1n1c(-c2cccnc2)n[nH]c1=S			MIC100		6.25 µg/mL
Cc1ccc(C2=NN(Cc3n[nH]c(=S)n3-c3ccc(Br)cc3)C(=O)CC2)cc1			MIC		7 µg/mL
Cc1cc(O)c2c(c1)C(=O)c1cc(O)c(O)c(O)c1C2=O	visual reading		MIC100		142–284 µM
Clc1ccc(-c2n[nH]c(CN3CCc4sccc4C3)n2)cc1	agar	NCIM 539	MIC		75 µg/mL
CCCCCCCCCCCCOC(=O)[C@]1(O)C[C@@H](O)[C@@H](O)[C@H](OC(=O)/C=C/c2ccc(O)c(O)c2)C1		AMP 9	MIC80		>1500 µg/mL
COc1ccc(C2=NN(Cc3n[nH]c(=S)n3-c3ccc(Br)cc3)C(=O)CC2)cc1			MIC		13 µg/mL
C[C@@H]1C/C=C/C=C/C=C/C=C/[C@H](OC2O[C@H](C)[C@@H](O)[C@H](N)[C@@H]2O)CC2O[C@](O)(C[C@@H](O)C[C@H]3O[C@@H]3/C=C/C(=O)O1)C[C@H](O)[C@H]2C(=O)O		Species complex	MIC50		32 µg/mL
O=c1[nH][nH]c2c1C(c1ccc(Br)cc1)CC(Cc1ccc3ccccc3c1)=C2	agar diffusion		MIC		50 µg/mL
O=C1CSC2(CCc3ccccc32)N1n1c(-c2ccc(Cl)cc2)n[nH]c1=S			MIC100		12.5 µg/mL
C[C@H]1[C@H](O)[C@@H](C)/C=C/C=C/C=C/C=C/C=C/C=C/C=C/[C@H](O[C@@H]2O[C@H](C)[C@@H](O)[C@H](N)[C@@H]2O)C[C@@H]2O[C@](O)(C[C@@H](O)C[C@@H](O)CC[C@H](O)[C@@H](O)C[C@@H](O)CC(=O)O[C@H]1C)C[C@H](O)[C@H]2C(=O)O	absorbance	ATCC 11496	MIC		2 µg/mL
CC(C)Cc1ccc(CC2=Cc3[nH][nH]c(=O)c3C(c3ccc(F)cc3)C2)cc1	agar diffusion		MIC		12.5 µg/mL
C[C@H]1[C@H](O)[C@@H](C)/C=C/C=C/C=C/C=C/C=C/C=C/C=C/[C@H](O[C@@H]2O[C@H](C)[C@@H](O)[C@H](N)[C@@H]2O)C[C@@H]2O[C@](O)(C[C@@H](O)C[C@@H](O)CC[C@H](O)[C@@H](O)C[C@@H](O)CC(=O)O[C@H]1C)C[C@H](O)[C@H]2C(=O)O			MIC		8 µg/mL
Nc1[nH]c(=O)ncc1F	broth dilution	KCCM 11899	MIC		25 µg/mL
CCCCCOc1ccc(-c2cc(-c3ccc(C(=O)N[C@H]4C[C@@H](O)[C@@H](O)NC(=O)[C@@H]5[C@@H](O)[C@@H](C)CN5C(=O)[C@H]([C@H](O)CC(N)=O)NC(=O)[C@H]([C@H](O)[C@@H](O)c5ccc(O)c(OS(=O)(=O)O)c5)NC(=O)[C@@H]5C[C@@H](O)CN5C(=O)[C@H]([C@@H](C)O)NC4=O)cc3)no2)cc1	broth dilution		MIC50		0.016 µg/mL
O=C1CCC(c2ccccc2)=NN1Cc1n[nH]c(=S)n1-c1ccccc1			MIC		5 µg/mL
COC(=O)c1c(N)oc2c(C)c(C)c(O)c(Sc3cccc(C)c3)c12	broth dilution	KCCM 11899	MIC		25 µg/mL
Cc1ccc(CC(=O)Nc2nc(C)cs2)cc1		NCIM 524	MIC		12.5 µg/mL
Cc1cc(=O)oc2cc(OCC(O)Cn3cnc4ccccc43)cc(OCC(O)Cn3cnc4ccccc43)c12			MIC		512 µg/mL
Nc1ccccc1Cc1nc(CN2CCc3sccc3C2)n[nH]1	agar	NCIM 539	MIC		150 µg/mL
C[C@H]1[C@H](O)[C@@H](C)/C=C/C=C/C=C/C=C/C=C/C=C/C=C/[C@H](O[C@@H]2O[C@H](C)[C@@H](O)[C@H](N)[C@@H]2O)C[C@@H]2O[C@](O)(C[C@@H](O)C[C@@H](O)CC[C@H](O)[C@@H](O)C[C@@H](O)CC(=O)O[C@H]1C)C[C@H](O)[C@H]2C(=O)O	broth dilution	F44	MIC		2 µg/mL
Nc1ncccc1-c1cc(Cc2ccc(COc3ccccn3)cc2)no1	broth dilution	IFM50915	MIC50	30% human serum	0.5 µg/mL
c1ccc(C(c2ccccc2)c2n[nH]c(CN3CCc4sccc4C3)n2)cc1	agar	NCIM 539	MIC		150 µg/mL

MIC50, MIC90 and the like: level of inhibition, or share of isolates inhibited. Conditions beyond the fields shown may differ between rows. a–b is a range or a potency band.